# Assay results published in publication PMC10879537 (Nature Communications, 2024).
# What was measured:
# [1] = test system: Vero E6 cells; details: replicate values
# [2] = test system: SARS-CoV-2 trVLP
# [3] = test system: Caco 2-N cells; details: replicate values
# [4] = Log (contentration μM) 0.193125
# [5] = Log (contentration μM) -0.107905
# [6] = Log (contentration μM) -0.408935
substance,measurement,setting,value
isotetrandrine,Cytoxicity (%),[1]; [4],5.3% and -4.32%
same,Cytoxicity (%),[1]; Log (contentration μM) 0.49485,5.41% and -2.27%
same,Cytoxicity (%),[1]; Log (contentration μM) 0.79588,-1.84% and -9.69%
same,Cytoxicity (%),[1]; Log (contentration μM) 1.09691,6.11% and -1.78%
same,Cytoxicity (%),[1]; Log (contentration μM) 1.39794,1.6% and -1.17%
same,Cytoxicity (%),[1]; Log (contentration μM) 1.69897,15.84% and 8.68%
same,Cytoxicity (%),[1]; [5],13.17% and 0.14%
same,Cytoxicity (%),[1]; [6],6.75% and -0.38%
same,"SI (SARS-CoV-2 trVLP, Caco 2-N)",[2],> 17.73
same,Cytoxicity (%),[3]; [4],9.73% and 0.03%
same,Cytoxicity (%),[3]; Log (contentration μM) 0.49485,5.9% and -3.83%
same,Cytoxicity (%),[3]; Log (contentration μM) 0.79588,8.57% and -4.22%
same,Cytoxicity (%),[3]; Log (contentration μM) 1.09691,3.59% and -4.42%
same,Cytoxicity (%),[3]; Log (contentration μM) 1.39794,8.55% and -4.22%
same,Cytoxicity (%),[3]; Log (contentration μM) 1.69897,15.37% and 1.74%
same,Cytoxicity (%),[3]; [5],8.61% and 2.25%
same,Cytoxicity (%),[3]; [6],8.26% and 4.72%

# Several values for one entry are separate records, joined by “and”; a condition that tells them apart may be missing. Identical values can stand only once. Like-named read-outs stand apart in the source and are kept apart here.
